A mixed list of measured activities; the numbers were collected in NIAID ChemDB.

All rows: growth or infection tests; organism: HIV-1; read-out: EC50

Neighbouring rows are from separate reports. Blank or dashed fields: not listed here. ECn is the concentration giving n% inhibition of infection, replication or growth.

smiles	strain or isolate	mutations	cells	read by	conditions	result
CCN(C(=O)C(=O)N(C)C)[C@@H]1CC[C@H](OC)Cn2c1nc(C(=O)NCc1ccc(F)cc1)c(O)c2=O		E92Q	HeLa P4-2	single cycle		0.003 µM
Cc1ccc(-c2ccc3c(c2)C=C(C(=O)Nc2ccc(C[N+](C)(C)C4CCOCC4)cc2)CCC3)cc1	CM7 CLADE C		PBMC	p24		<1 µM
OC[C@H]1O[C@@H]2O[C@H]3[C@H](O)[C@@H](O)[C@@H](O[C@H]4[C@H](O)[C@@H](O)[C@@H](O[C@H]5[C@H](O)[C@@H](O)[C@@H](O[C@H]6[C@H](O)[C@@H](O)[C@@H](O[C@H]7[C@H](O)[C@@H](O)[C@@H](O[C@H]8[C@H](O)[C@@H](O)[C@@H](O[C@H]1[C@H](O)[C@H]2O)O[C@@H]8CO)O[C@@H]7CO)O[C@@H]6CO)O[C@@H]5CO)O[C@@H]4CO)O[C@@H]3CO	IIIB		SupT1 + Sup-T1	RT activity		>630 µM
Cc1ccnc2c1NC(=O)c1cccnc1N2C1CC1	IIIB		HuT-78	p24 / ELISA / antigen		>7.5 µM
CC1(C)C(=O)c2c(O)c(=O)c(C(=O)NCc3ccc(F)cc3F)cn2CC1NCCCP(=O)(O)O	NL4-3		MT4-GFP	fluorescence	100% human serum	1.935 µM
CC(C)C1=C2[C@H]3CC[C@@H]4[C@@]5(C)CC[C@H](OC(=O)[C@H]6C[C@@H](C(=O)O)C6(C)C)C(C)(C)[C@@H]5CC[C@@]4(C)[C@]3(C)CC[C@@]2(CC(=O)NC(F)(CN)CNC(=O)c2ccc(Cl)cc2)CC1=O	92HT599		MT-2	p24 / ELISA		<1 µM
C=C(C)[C@@H]1CC[C@]2(C(=O)NCCCCCCCC(=O)N[C@@H](CC(C)C)[C@@H](O)CC(=O)O)CC[C@]3(C)[C@H](CC[C@@H]4[C@@]5(C)CC[C@H](O)C(C)(C)[C@@H]5CC[C@]43C)[C@@H]12	LAI-R(GP41-I84S)	I84S	HeLa P4 + HeLa	p24		>10 µM
O=C(O)c1cc(-n2cccc2)ccc1Cl	93IN101 R5 CLADE C		PBMC + MT-2	p24		19.73 µM
Nc1ncnc2c1ncn2[C@@H]1C=C(CO)[C@@H](O)[C@H]1O	A018 POST-AZT		PBMC	p24		0.001 µM
Cc1nc(CCCCCCC(=O)c2ccccc2)n2nc(NCCCCCCCCNCc3cn([C@H]4C=C[C@@H](CO)O4)c(=O)[nH]c3=O)ccc12	LAI		CEM + CEM TK-	RT activity		6.3 µM
Cc1cc(S(N)(=O)=O)ccc1NC(=O)COc1ccc(Cl)cc1C(=O)c1cc(F)cc(C(F)(F)F)c1	IIIB	RT-K103N G190A	HELA MAGI	luciferase		0.016 µM
C[C@@H]1CCO[C@H]2Cn3cc(C(=O)NCc4ccc(F)cc4F)c(=O)c(O)c3C(=O)N12			HOS	luciferase		<0.004 µM
CCCN(CCC[C@H](NC(C)=O)C(=O)NCc1ccccc1)C(=O)NC	IIIB		CEM-IW + CEM	cytopathic effect / XTT		>100 µM
Cc1nc(CCCCCCC(=O)c2ccccc2)n2nc(NCCCCCCCCCCCCN)ccc12	LAI		CEM + CEM TK-	RT activity		5.9 µM
CCN(CC)CCCC(C)Nc1ccnc2cc(Cl)ccc12			U-937	RT activity		<100 µM
O=Cc1coc2ccc(Cl)cc2c1=O	IIIB		HTLV-I-bearing MT-4	MTT		>40 µg/mL
COc1cnc(-n2cnc(C)n2)c2c1c(C(=O)C(=O)N1CCN(C(=O)c3ccccc3)CC1)cn2COP(=O)(O)O	NL4-3	M426K	U-87	luciferase		0.0037 µM
Cc1noc(C)c1C(=O)NC(C)(C)CNC[C@H](O)[C@@]12CC[C@]3(C)[C@H](CC[C@@H]4[C@@]5(C)CC[C@H](OC(=O)[C@H]6C[C@@H](C(=O)O)C6(C)C)C(C)(C)[C@@H]5CC[C@]43C)C1=C(C(C)C)C(=O)C2	92HT599		MT-2	p24 / ELISA		<1 µM
CC[C@@H]1COC[C@H](N(C)C(=O)C(=O)N(C)C)c2nc(C(=O)NCc3ccc(F)cc3)c(O)c(=O)n21		Y143R	HeLa P4-2	single cycle		0.002 µM
Cc1nc(CCCCCCC(=O)c2ccccc2)n2nc(Cl)ccc12	LAI		CEM + CEM TK-	RT activity		0.51 µM
CC(=O)N[C@@H](CCCCNC(=O)OCc1ccccc1)C(=O)NCc1ccccc1	IIIB		CEM-IW + CEM	cytopathic effect / XTT		>100 µM
Nc1nccc2c1ncn2[C@@H]1C=C(CO)[C@@H](O)[C@H]1O	18453 unpaired		PBMC	p24		0.0034 µM
Nc1ncnc2c1ncn2[C@@H]1C[C@@](OCP(=O)(O)O)(C2CC2)[C@@H](O)[C@H]1O			T4	XTT / absorbance		>100 µM
CO[C@]1(C)CC[C@@H](N(C)C(=O)C(=O)N(C)C)c2nc(C(=O)NCc3ccc(F)c(C)c3)c(O)c(=O)n2C1		Y143R	HeLa P4-2	single cycle		0.002 µM
Nc1nc2c(ccn2[C@H]2C=C[C@@H](CO)C2)c(=O)[nH]1	LAI		CEMx174 + CEM	RT activity		25 µM
CC(C)C1=C2[C@H]3CC[C@@H]4[C@@]5(C)CC[C@H](OC(=O)[C@H]6C[C@@H](C(=O)O)C6(C)C)C(C)(C)[C@@H]5CC[C@@]4(C)[C@]3(C)CC[C@@]2(CC(=O)NCC(C)(CCN)NC(=O)c2ccc(Cl)cc2)CC1=O	92HT599		MT-2	p24 / ELISA		<1 µM
CCCc1cc(=O)oc2c3c(c4c(c12)OC(C)(C)CC4)O[C@@H](C)[C@H](C)[C@@H]3O	Nevirapine-resistant (RT Y181C)	RT-Y181C	CEM + CEM-SS	XTT		0.09 µM
CCN1C[C@H](C)n2c(c(O)c3c(=O)n(Cc4ccc(F)c(Cl)c4)nc(C(=O)NC)c32)C1=O	NL4-3	G118R	PM1	RT activity		0.0035 µM
CCCc1cc(=O)oc2c3c(c4c(c12)OC(C)(C)CC4)O[C@H](C)[C@@H](C)C3=O	4xAZT resistant isolate	RT-D67N K70R T215Y K219Q		cytopathic effect / XTT		2.73 µM
C=C(C)[C@@H]1CC[C@]2(C(=O)NCCCCCCCC(=O)N[C@@H](CC(C)C)[C@@H](O)CC(=O)O)CC[C@]3(C)[C@H](CC[C@@H]4[C@@]5(C)CC[C@H](O)C(C)(C)[C@@H]5CC[C@]43C)[C@@H]12	IIIB		CEM + CEM-4	cytopathic effect / MTT		0.058 µM
Cc1ccc(CNC(=O)c2nc3n(c(=O)c2O)C(C)CCCC3N(C)C(=O)C(=O)N(C)C)cc1F		G140S/Q148H	HeLa P4-2	single cycle		0.002 µM
CC(C)=CCOc1cc(NC(=S)c2ccoc2C)ccc1Cl	NL4-3 (RT V179D)	RT-V179D	CEM + CEM-SS	cytopathic effect / XTT		0.008 µM
CC(C)C1=C2[C@H]3CC[C@@H]4[C@@]5(C)CC[C@H](OC(=O)[C@H]6C[C@@H](C(=O)O)C6(C)C)C(C)(C)[C@@H]5CC[C@@]4(C)[C@]3(C)CC[C@@]2(CCNCc2csc(N)n2)CC1=O	92HT599		MT-2	p24 / ELISA		<1 µM
C/C1=C\C=C\C2(C)C=C(CO[C@H]3O[C@H](CO)[C@H](O)[C@H](O)[C@H]3O)C(C)CC23OC([O-])C(C3=O)C(O)/C=C/C2(C)C=C(C=O)C(C)CC23OC([O-])C(C3=O)C(O)/C(C)=C/C=C/C2C=C(CO[C@H]3O[C@H](CO)[C@H](O)[C@H](O)[C@H]3O)C(C)CC23OC([O-])C(C3=O)C(O)/C=C/C2(C)C=C(C=O)C(C)CC23OC([O-])C(C3=O)C1O	IIIB		MOLT-4/(MOLT-4/1(IIIB) + MOLT-4	syncytia		>100 µg/mL
Cc1cn(-c2ccc(CNCC[C@@]34CC[C@]5(C)[C@H](CC[C@@H]6[C@@]7(C)CC[C@H](OC(=O)[C@H]8C[C@@H](C(=O)O)C8(C)C)C(C)(C)[C@@H]7CC[C@]65C)C3=C(C(C)C)C(=O)C4)cc2)cn1	92HT599		MT-2	p24 / ELISA		<1 µM
CCOP(=O)(CO[C@@]1(C2CC2)C[C@@H](n2cnc3c(N)ncnc32)[C@H](C)[C@@H]1C)OCC			T4	XTT / absorbance		>100 µM
Nc1ccn([C@H]2CC[C@@H](CO)O2)c(=O)n1	NL4-3	P203S L204I		β-galactosidase		0.646 µM
O=Cc1coc2c(Br)cc(Br)cc2c1=O	IIIB		HTLV-I-bearing MT-4	MTT		>200 µg/mL
Cc1cc(CNC(=O)c2nc3n(c(=O)c2O)[C@H](C)COC[C@@H]3N(C)C(=O)C(=O)N(C)C)ccc1F		Y143R	HeLa P4-2	single cycle		0.001 µM
CC(C)C1=C2[C@H]3CC[C@@H]4[C@@]5(C)CC[C@H](OC(=O)[C@H]6C[C@@H](C(=O)O)C6(C)C)C(C)(C)[C@@H]5CC[C@@]4(C)[C@]3(C)CC[C@@]2([C@@H](O)CNCc2ccc(Cl)cn2)CC1=O	92HT599		MT-2	p24 / ELISA		<1 µM
Clc1cc(CN2CCCNCCNCCCNCC2)cc(Cl)n1	HE R3 R5 X4		HOS-CD4-CCR5 + HOS	p24		6.1 µM
Cc1cc(CNC(=O)c2nc3n(c(=O)c2O)CC(C)(C)CCC3N(C)C(=O)C(=O)N(C)C)ccc1F		Q148R	HeLa P4-2	single cycle		0.002 µM
O=C(NCc1c(F)cc(F)cc1F)c1cn2c(c(O)c1=O)C(=O)N1[C@H]3CC[C@H](C3)O[C@@H]1C2		+G insertion (GGGGAGT)	HOS	luciferase		<0.001 µM
C=CCNC(=O)N(CCC)CCC[C@H](NC(C)=O)C(=O)NCc1ccccc1	IIIB		CEM-IW + CEM	cytopathic effect / XTT		>100 µM
O=Cc1coc2c(Cl)cc(Cl)cc2c1=O	IIIB		HTLV-I-bearing MT-4	MTT		>200 µg/mL
CC(C)C1=C2[C@H]3CC[C@@H]4[C@@]5(C)CC[C@H](OC(=O)[C@H]6C[C@@H](C(=O)O)C6(C)C)C(C)(C)[C@@H]5CC[C@@]4(C)[C@]3(C)CC[C@@]2(CCNCC(C)(C)NC(=O)c2cccc(Cl)c2)CC1=O	92HT599		MT-2	p24 / ELISA		<1 µM
C=CCN(N=O)C(=O)N(CCC[C@H](NC(C)=O)C(=O)NCc1ccccc1)Cc1ccccc1	IIIB		CEM-IW + CEM	cytopathic effect / XTT		>100 µM
Nc1c(C(=O)NCc2ccc(F)cc2F)c(=O)n(O)c2ncc(CCCCCCO)cc12			HOS	luciferase		<0.004 µM
Cc1cc2occ(C=O)c(=O)c2cc1Cl	IIIB		HTLV-I-bearing MT-4	MTT		>40 µg/mL
C/C=C/CSc1cc(NC(=S)c2ccsc2C)ccc1Cl	NL4-3	RT-L100I	CEM + CEM-SS	p24		2.2 µM
CC(C)=CCOc1cc(NC(=S)c2ccsc2C)ccc1Cl	NL4-3 (RT L74V)	RT-L74V	CEM + CEM-SS	cytopathic effect / XTT		0.006 µM
COc1ccc2occ(C=O)c(=O)c2c1	IIIB		HTLV-I-bearing MT-4	MTT		>200 µg/mL
Cc1nc(CCCCCCC(=O)c2ccccc2)n2nc(NCCCCCCCCCCCCNCc3cn([C@H]4C=C[C@@H](CO)O4)c(=O)[nH]c3=O)ccc12	LAI		CEM + CEM TK-	RT activity		6.5 µM
CC(C)C1=C2[C@H]3CC[C@@H]4[C@@]5(C)CC[C@H](OC(=O)[C@H]6C[C@@H](C(=O)O)C6(C)C)C(C)(C)[C@@H]5CC[C@@]4(C)[C@]3(C)CC[C@@]2(CCNC(=O)c2ccc(O[C@H]3CCOC3)cc2)CC1=O	92HT599		MT-2	p24 / ELISA		<1 µM
CC(=O)N[C@@H](CCCN)C(=O)NCc1ccccc1	IIIB		CEM-IW + CEM	cytopathic effect / XTT		>100 µM
Cc1cc(CNC(=O)c2nc3n(c(=O)c2O)CC(C)(C)CC[C@@H]3N(C)C(=O)C(=O)N(C)C)ccc1F		N155H	HeLa P4-2	single cycle		0.014 µM

A second listing of 8 rows from above:

smiles,strain or isolate,mutations,cells,read by,conditions,result
Nc1ncnc2c1ncn2[C@@H]1C[C@@](OCP(=O)(O)O)(C2CC2)[C@@H](O)[C@H]1O,,,T4,XTT / absorbance,,>100 µM
Cc1nc(CCCCCCC(=O)c2ccccc2)n2nc(Cl)ccc12,LAI,,CEM + CEM TK-,RT activity,,0.51 µM
Cc1noc(C)c1C(=O)NC(C)(C)CNC[C@H](O)[C@@]12CC[C@]3(C)[C@H](CC[C@@H]4[C@@]5(C)CC[C@H](OC(=O)[C@H]6C[C@@H](C(=O)O)C6(C)C)C(C)(C)[C@@H]5CC[C@]43C)C1=C(C(C)C)C(=O)C2,92HT599,,MT-2,p24 / ELISA,,<1 µM
COc1cnc(-n2cnc(C)n2)c2c1c(C(=O)C(=O)N1CCN(C(=O)c3ccccc3)CC1)cn2COP(=O)(O)O,NL4-3,M426K,U-87,luciferase,,0.0037 µM
Cc1nc(CCCCCCC(=O)c2ccccc2)n2nc(NCCCCCCCCCCCCN)ccc12,LAI,,CEM + CEM TK-,RT activity,,5.9 µM
CC(C)=CCOc1cc(NC(=S)c2ccoc2C)ccc1Cl,NL4-3 (RT V179D),RT-V179D,CEM + CEM-SS,cytopathic effect / XTT,,0.008 µM
O=C(NCc1c(F)cc(F)cc1F)c1cn2c(c(O)c1=O)C(=O)N1[C@H]3CC[C@H](C3)O[C@@H]1C2,,+G insertion (GGGGAGT),HOS,luciferase,,<0.001 µM
O=Cc1coc2c(Br)cc(Br)cc2c1=O,IIIB,,HTLV-I-bearing MT-4,MTT,,>200 µg/mL